Results of unrelated studies side by side (data: NIAID ChemDB).

Common to all: growth or infection tests; agent: Mycobacterium tuberculosis

MIC50, MIC90 and the like: level of inhibition, or share of isolates inhibited.

SMILES,strain,cell line,method,endpoint,dose,result
COC(=O)c1ccc(O)cc1,H37Rv,-,agar,MIC,-,>350 µM
CN(/N=C/c1ccsc1)c1ccccc1,H37Rv (ATCC 27294),-,resazurin,inhibition,6.25 µg/mL,50%
O=C(/C=C/c1ccccc1)n1c(-c2ccc(Cl)cc2)nc2ccccc21,H37Rv,-,resazurin / visual reading,MIC100,-,>100 µg/mL
CSc1nnc(-c2ccc([N+](=O)[O-])o2)s1,H37Rv,-,-,inhibition,6.25 µg/mL,99%
O=C(Nc1ccccc1)c1cccnc1Cl,H37Rv,-,-,MIC,-,>20 µg/mL
C/C(=C\c1c(C)[nH]c2ccccc12)[N+](=O)[O-],H37Rv (ATCC 27294),VERO,resazurin,inhibition,6.25 µg/mL,91%
O=C(/C=C/c1ccccc1)n1c(-c2ccc(F)cc2)nc2ccccc21,H37Rv,-,resazurin / visual reading,MIC100,-,25 µg/mL
CCC(CO)NC[C@@H]1N[C@H](CO)[C@@H](O)[C@@H]1O,H37Ra,-,-,MIC,-,>128 µg/mL
N#Cc1ccc(Nc2nc(Oc3cccc4cccnc34)nc(N3CCN(c4ccccc4F)CC3)n2)cc1C(F)(F)F,H37Rv,-,agar,MIC99,-,25 µg/mL
Cc1ccc[n+]2c1[nH]c(=O)c1cccnc12,H37Rv,-,-,MIC,-,>20 µg/mL
N#Cc1ccc(Nc2nc(Oc3cccc4cccnc34)nc(N3CCCCC3)n2)cc1C(F)(F)F,H37Rv,-,BACTEC,MIC,-,>6.25 µg/mL
CCCCNCNC1=CC(NCc2ccccc2)=CC1,H37Rv,-,-,MIC,-,250 µg/mL
O=C(N/N=C/c1ccccc1[N+](=O)[O-])c1ccncc1,ATTC 27294,-,resazurin,MIC,-,5 µg/mL
C[C@]1(/C=C/Cl)C[C@](Cl)(CBr)[C@@H](Br)C[C@H]1Cl,-,-,-,MIC,-,32 µg/mL
CC1(C)CCCN1CC(O)CN1c2ccccc2Sc2ccc(Cl)cc21.Cl,H37Rv,-,-,MIC,-,12.5 µg/mL
N#Cc1ccc(NC(=O)c2cccnc2Cl)cc1,H37Rv,-,-,MIC,-,>20 µg/mL
CCC(CO)NC[C@H]1OC(OC)[C@@H](O)[C@@H]1O,H37Ra,-,-,MIC,-,>128 µg/mL
O=C1c2ccccc2C(=O)c2sc(Nc3cc(Cl)ccc3Cl)nc21,H37Rv,-,BACTEC,MIC bound,-,≤12.5 µg/mL
Cc1cc2ncn(C(=O)/C=C/c3ccccc3)c2cc1C,H37Rv,-,resazurin / visual reading,MIC100,-,50 µg/mL
CCCCNCc1ccccc1C,H37Rv,-,-,MIC,-,250 µg/mL
O=C(N/N=C/c1ccc([N+](=O)[O-])cc1[N+](=O)[O-])c1ccncc1,ATTC 27294,-,resazurin,MIC,-,5 µg/mL
NCCCNc1ccnc2cc(Cl)ccc12.[Cl][Pt][Cl],H37Rv,-,resazurin,MIC,-,125 µg/mL
CCS(=O)c1nnc(-c2ccc([N+](=O)[O-])o2)s1,H37Rv,-,-,inhibition,6.25 µg/mL,100%
Cc1cccc(NC(=O)c2cccnc2Cl)n1,H37Rv,-,-,MIC,-,>20 µg/mL
CC(C)=NNC(=O)Nc1ccc(C)c(Cl)c1,H37Rv,-,BACTEC,MIC bound,-,≤12.5 µg/mL
COc1cc(Cc2cnc(/N=C3\C(=O)N(CN4CCN(c5ccccn5)CC4)c4ccc(C)cc43)nc2N)cc(OC)c1OC,H37Rv,-,-,MIC,-,25 µg/mL
CC(=O)Oc1ccc(Oc2c(-c3ccc4ccccc4c3)nc3ccc(Cl)cc3c2-c2ccccc2)cc1,H37Rv,-,agar,MIC,-,50 µM
COc1cccc(N2CCN(CN3C(=O)/C(=N\c4ncc(Cc5cc(OC)c(OC)c(OC)c5)c(N)n4)c4cc(C)ccc43)CC2)c1,H37Rv,-,-,MIC,-,15 µg/mL
CCOC(=O)c1c(NCCO)c(-c2ccccc2)c(=O)n2c1[nH]c1ccccc12,H37Rv,-,BACTEC,inhibition,12.5 µg/mL,-27%
Cc1[nH]c2ccccc2c1/C=N/N=C/c1c(C)[nH]c2ccccc12,H37Rv (ATCC 27294),-,resazurin,inhibition,6.25 µg/mL,10%
NCCNc1ccnc2cc(Cl)ccc12,H37Rv,-,resazurin,MIC,-,125 µg/mL
Cc1ccc(C)c(CSc2nnc(-c3ccc([N+](=O)[O-])o3)s2)c1,H37Rv,-,-,inhibition,6.25 µg/mL,29%
O=c1c(Cl)c2oc3ccc([N+](=O)[O-])cc3nc-2c(Cl)c1Cl,H37Rv,-,BACTEC,inhibition,12.5 µg/mL,62%
C=C(C)CC[C@H]1CN(c2ccn(N3CCOCC3)c2)C(=O)O1,C.I.1104,-,-,MIC50,-,>100 µM
CCCCNCc1ccc(Br)cc1,H37Rv,-,-,MIC,-,250 µg/mL
CC1(C)CC(=O)OC/C=C\CC(Cc2ccccc2)C(=O)C1,H37Rv,-,BACTEC,inhibition,12.5 µg/mL,26%
CCCCNCc1cccc(Br)c1,H37Rv,-,-,MIC,-,125 µg/mL
COc1cc(Cc2cnc(/N=C3\C(=O)N(CN4CCN(c5ccccc5)CC4)c4ccc(C)cc43)nc2N)cc(OC)c1OC,H37Rv,-,-,MIC,-,18 µg/mL
O=C(/C=C/c1ccccc1)n1c(-c2cccc(Br)c2)nc2ccccc21,H37Rv,-,resazurin / visual reading,MIC100,-,50 µg/mL
CCC(CO)NC[C@@H]1O[C@H](CO)[C@@H](O)[C@@H]1O,H37Ra,-,-,MIC,-,>128 µg/mL
N#Cc1ccc(Nc2nc(Oc3cccc4cccnc34)nc(N3CCN(Cc4ccccc4)CC3)n2)cc1C(F)(F)F,H37Rv,-,BACTEC,MIC,-,>6.25 µg/mL
NCCCC(N)CC(=O)NCC1NC(=O)C(CO)NC(=O)C(NC(=O)CC(N)CCCN)CNC(=O)C(C2CCN=C(N)N2)NC(=O)/C(=C/NC(N)=O)NC1=O,H37Rv,-,-,MIC,-,5 µg/mL
COc1ccc(N2CCN(c3nc(Nc4ccc(C#N)c(C(F)(F)F)c4)nc(Oc4cccc5cccnc45)n3)CC2)cc1,H37Rv,-,BACTEC,MIC99,-,6.25 µg/mL
CC[C@H](CO)NCC[C@H]1O[C@H](O[C@H]2O[C@H](CCN[C@H](CC)CO)[C@@H](O)[C@H](O)[C@H]2O)[C@H](O)[C@@H](O)[C@@H]1O,H37Ra,-,-,MIC,-,>128 µg/mL
O=C(Nc1cccc([N+](=O)[O-])c1)c1cccnc1Cl,H37Rv,-,-,MIC,-,>20 µg/mL
CC12CCC(C(NC(=S)S)C1=O)C2(C)C,H37Rv,-,BACTEC,MIC,-,32 µg/mL
N#Cc1ccc(Nc2nc(Oc3cccc4cccnc34)nc(N3CCN(c4ncccn4)CC3)n2)cc1C(F)(F)F,H37Rv,-,BACTEC,MIC,-,>6.25 µg/mL
Oc1ccc(CCN=C=S)cc1,W multidrug-resistant,-,visual reading,MIC,-,4 µg/mL
CCCCOC(=O)c1ccc2[nH]ncc2c1,H37Ra,-,visual reading,MIC,-,200 µM
C#CCNCCNc1ccnc2cc(Cl)ccc12.[Cl][Pt+2][Cl],H37Rv,-,resazurin,MIC,-,125 µg/mL
O=C(/C=C/c1ccccc1)n1c(-c2ccccc2O)nc2ccccc21,H37Rv,-,resazurin / visual reading,MIC100,-,25 µg/mL
CCCNCc1ccccc1,H37Rv,-,-,MIC,-,250 µg/mL
CC1COc2c(N3CCN(C)CC3)c(F)cc3c(=O)c(C(=O)O)cn1c23,10 strains,-,-,MIC,-,≤1 µg/mL
CS(=O)(=O)CC1=NC(=N)N=C1CS(C)(=O)=O,H37Rv,-,BACTEC,inhibition,12.5 µg/mL,0%
Cc1[nH]c2ccccc2c1/C=C/[N+](=O)[O-],H37Rv (ATCC 27294),-,resazurin,inhibition,6.25 µg/mL,17%
O=C(Nc1ccc([N+](=O)[O-])cc1)c1cccnc1Cl,H37Rv,-,-,MIC,-,>20 µg/mL
COc1ccc(-c2n[nH]c3nc4ccccc4n3c2=O)cc1,H37Rv,-,resazurin,inhibition,6.25 µg/mL,2%
NCCC[C@H](N)CC(=O)N[C@H]1CNC(=O)[C@H]([C@H]2C[C@H](O)NC(N)=N2)NC(=O)/C(=C/NC(N)=O)NC(=O)[C@H](CO)NC(=O)[C@H](CO)NC1=O,Isolate VIM-R/3,-,-,MIC,-,20 µg/mL
CCCCNCc1ccccc1,H37Rv,-,-,MIC,-,60 µg/mL
O=[N+]([O-])c1ccc(-c2nnc(S(=O)(=O)Cc3ccc(Cl)cc3)s2)o1,H37Rv,-,-,inhibition,6.25 µg/mL,13%
O=C(/C=C/c1ccccc1)n1cnc2ccc([N+](=O)[O-])cc21,H37Rv,-,resazurin / visual reading,MIC100,-,100 µg/mL
N#Cc1ccc(Nc2nc(Oc3ccnc4ccccc34)nc(N3CCN(c4cccc(Cl)c4Cl)CC3)n2)cc1C(F)(F)F,H37Rv,-,agar,MIC,-,12.5 µg/mL
O=C(NCCNC(=O)c1cccnc1)c1cccnc1,H37Rv,-,BACTEC,MIC bound,-,>12.5 µg/mL
N#Cc1ccc(Nc2nc(Oc3cccc4cccnc34)nc(N3CCN(C(c4ccccc4)c4ccccc4)CC3)n2)cc1C(F)(F)F,H37Rv,-,agar,MIC97,-,100 µg/mL
O=C(N/N=C/c1cccc2ccccc12)c1cccnc1,H37Rv,-,BACTEC,MIC bound,-,>12.5 µg/mL
Cc1[nH]c2ccccc2c1/C=N/N(C)c1ccccc1,H37Rv (ATCC 27294),VERO,resazurin,inhibition,6.25 µg/mL,95%
CN(C)C/C=C(/c1ccccc1)c1ccc(-c2ccc(Br)cc2)cc1,H37Ra,-,-,MBC,-,16 µg/mL
CS(=O)(=O)c1nnc(-c2ccc([N+](=O)[O-])o2)s1,H37Rv,-,-,inhibition,6.25 µg/mL,<90%
Cc1ccc(NC(=O)c2cccc(F)c2)cc1Cl,H37Rv,-,BACTEC,inhibition,12.5 µg/mL,99%
NCc1ccccc1,H37Rv,-,-,MIC,-,250 µg/mL
CC1CC(C)CN(c2nc(Nc3ccc(C#N)c(C(F)(F)F)c3)nc(Oc3ccnc4ccccc34)n2)C1,H37Rv,-,BACTEC,inhibition,6.25 µg/mL,99%
CC(=O)N1c2ccccc2C2=NN=C(N(C)C)SC21,H37Rv,-,resazurin,MIC bound,-,<6.25 µg/mL
Cc1cc2c(c(C)c1C(O)CO)C(=O)[C@](C)(CO)C2,H37Rv,-,agar,MIC,-,23.7 µM
COc1cc(C2OCC3C(c4cc(OC)c(OC)c(OC)c4)OCC23)cc(OC)c1OC,H37Rv,-,BACTEC,inhibition,12.5 µg/mL,0%
O=C(/C=C/c1ccccc1)n1c(-c2ccc(Cl)c(Cl)c2)nc2ccccc21,H37Rv,-,resazurin / visual reading,MIC100,-,25 µg/mL
CCN(CC)CCNc1ccc(OC)c2sc3ccccc3c(=O)c12,H37Rv,-,BACTEC,MIC,-,12.5 µg/mL
NCCCNc1ccnc2cc(Cl)ccc12,H37Rv,-,resazurin,MIC,-,125 µg/mL
N#CC(/C(=N/NC(=O)C(=O)NN)C(=O)Nc1nc([N+](=O)[O-])cs1)c1ccc(Cl)cc1,H37Rv,-,BACTEC,MIC bound,-,>12.5 µg/mL
N#Cc1ccc(Nc2nc(Oc3ccnc4ccccc34)nc(N3CCN(c4ccc(F)cc4)CC3)n2)cc1C(F)(F)F,H37Rv,-,agar,MIC,-,25 µg/mL
ClCc1c(-c2ccccc2)oc(-c2ccccc2)c1CCl,H37Rv,-,BACTEC,inhibition,12.5 µg/mL,94%
O=[N+]([O-])c1ccc(-c2nnc(SCc3ccccc3)s2)o1,H37Rv,-,-,inhibition,6.25 µg/mL,11%
Cc1nc2c(=O)n(C)c(=O)n(C)c2nc1C,H37Rv,-,BACTEC,inhibition,12.5 µg/mL,0%
CC[C@@H](CO)NCCN[C@@H](CC)CO,H37Rv,-,agar,MIC,-,30.6 µM
COc1ccc2c(C)cc(N/N=C/c3ccc(OC)c4ccccc34)nc2c1,H37Rv,-,BACTEC,MIC bound,-,≤12.5 µg/mL
COc1cc(Cc2cnc(/N=C3\C(=O)N(CN4CCN(c5ccc6c(c5F)c(=O)c(C(=O)O)cn6C5CC5)CC4)c4ccc(C)cc43)nc2N)cc(OC)c1OC,H37Rv,-,-,MIC,-,100 µg/mL
Nc1nc(N)c(N=Nc2ccc(C(=O)O)cc2)c(=O)[nH]1,H37Rv,-,BACTEC,inhibition,12.5 µg/mL,-10%
CC[C@@H](CO)NCCN[C@@H](CC)CO,-,-,-,MIC,-,16 µg/mL

The first 6 rows once more:

SMILES	strain	cell line	method	endpoint	dose	result
COC(=O)c1ccc(O)cc1	H37Rv	-	agar	MIC	-	>350 µM
CN(/N=C/c1ccsc1)c1ccccc1	H37Rv (ATCC 27294)	-	resazurin	inhibition	6.25 µg/mL	50%
O=C(/C=C/c1ccccc1)n1c(-c2ccc(Cl)cc2)nc2ccccc21	H37Rv	-	resazurin / visual reading	MIC100	-	>100 µg/mL
CSc1nnc(-c2ccc([N+](=O)[O-])o2)s1	H37Rv	-	-	inhibition	6.25 µg/mL	99%
O=C(Nc1ccccc1)c1cccnc1Cl	H37Rv	-	-	MIC	-	>20 µg/mL
C/C(=C\c1c(C)[nH]c2ccccc12)[N+](=O)[O-]	H37Rv (ATCC 27294)	VERO	resazurin	inhibition	6.25 µg/mL	91%

Inhibition is in % at the dose shown (toxicity tests: loss of growth or viability). An empty or dashed field is not shown. Neighbouring rows are from separate reports. MIC bound comes from a single tested concentration.